Anti-infective test results gathered from many reports (values: NIAID ChemDB through PubChem).

Common to all: tests in culture; organism: HIV-1

ECn: concentration that inhibits the pathogen or its effect by n%. An empty or dashed field is not shown. Conditions beyond the fields shown may differ between rows. a–b is a range or a potency band.

| smiles | changes | strain | read by | cells | setting | measure | value |
|---|---|---|---|---|---|---|---|
| Cc1cn([C@H]2C=C[C@@H](CO)O2)c(=O)[nH]c1=O | - | - | - | MT-4 | - | EC50 | 0.33 µM |
| CCN[C@H]1CO[C@@H]2OCC[C@H](OC(=O)N[C@@H](Cc3ccccc3)[C@H](O)CN(CC(C)C)S(=O)(=O)c3ccc4nc(NC5CC5)sc4c3)[C@@H]21 | L10I L33I M36I M46I I54V K55R I62V L63P A71V G73S V82T L90M I93L | NL4-3 | p24 / luminescence | MT-4 | - | EC50 | 0.0063 µM |
| CC[C@H](C)[C@H](C(=O)O)N1C[C@H](CN2CCC(c3cc(Cc4cccc5ccccc45)nn3CC)CC2)[C@@H](c2cccc(F)c2)C1 | - | BaL | β-galactosidase | HeLa | 50% human serum | EC90 | 0.011 µM |
| C[C@H](Cn1cnc2c(N)nc(N)nc21)OCP(=O)(O)O | - | - | - | MM + M/M | - | EC50 | 0.02 µM |
| Cc1cn([C@H]2C[C@H](N=[N+]=[N-])[C@@H](CO)O2)c(=O)[nH]c1=O | - | - | cytopathic effect | CEM + CEM-SS | - | EC50 | 0.004 µM |
| CCCCOc1ccc(Cc2cc(C3CCN(C[C@H]4CN([C@@H](C(=O)O)C5CCCCC5)C[C@@H]4c4cccc(F)c4)CC3)n(CC)n2)cc1 | - | BaL | β-galactosidase | HeLa | 50% human serum | EC50 | <0.033 µM |
| Cc1cn([C@H]2C[C@H](N=[N+]=[N-])[C@@H](COP(=O)(OCc3ccccc3)OCc3ccccc3)O2)c(=O)[nH]c1=O | - | - | cytopathic effect | CEM + CEM-SS | - | EC50 | 0.01 µM |
| CCn1nc(Cc2ccc(OCc3ccccc3)cc2)cc1C1CCN(C[C@H]2CN([C@@H](C(=O)O)C(C)(C)C)C[C@@H]2c2cccc(F)c2)CC1 | - | BaL | β-galactosidase | HeLa | 50% human serum | EC50 | <0.3 µM |
| Cc1cn([C@@H]2O[C@H](CO[Si](C)(C)C(C)(C)C)C3(OS(=O)(=O)C=C3N)[C@H]2O[Si](C)(C)C(C)(C)C)c(=O)n(CC2CO2)c1=O | - | - | - | - | - | EC50 | 0.03–0.76 µM |
| Nc1nc2c(ncn2[C@H]2C=C[C@@H](CO)O2)c(=O)[nH]1 | - | LAI | cytopathic effect / MTT | PBMC | - | EC50 | 0.34 µM |
| COc1ccc(S(=O)(=O)N(CC(C)C)C[C@@H](O)[C@H](Cc2ccccc2)NC(=O)O[C@H]2CCO[C@H]3OC[C@H](O)[C@H]32)cc1 | L10I I15V K20R L24I V32I M36I M46I L63P K70Q V82A I84V L89M | NL4-3 | p24 / luminescence | MT-4 | - | EC50 | 0.046 µM |
| Cc1ccnc2c1NC(=O)c1cccnc1N2C1CC1 | - | IIIB (BI-RG-587-RS) | cytopathic effect / MTT | MT-2 | - | EC50 | >11.1 µM |
| Nc1nc(NC2CC2)c2ncn([C@H]3C=C[C@@H](CO)O3)c2n1 | - | BRU PITT WT | cytopathic effect / MTT | PBMC | - | EC50 | 4.4 µM |
| CC[C@H](C)[C@H](C(=O)O)N1C[C@H](CN2CCC(c3cc(Cc4ccc(C)cc4)nn3CC)CC2)[C@@H](c2cccc(F)c2)C1 | - | BaL | β-galactosidase | HeLa | 50% human serum | EC90 | 0.011 µM |
| CC(C)(C)NC(=O)[C@@H]1C[C@@H]2CCCC[C@@H]2CN1C[C@@H](O)[C@H](Cc1ccccc1)NC(=O)[C@H](CC(N)=O)NC(=O)c1ccc2ccccc2n1 | - | IIIB | cytopathic effect / MTT | MT-4 | - | EC90 | 0.0086 µg/mL |
| Cc1cn([C@H]2C[C@H](N=[N+]=[N-])[C@@H](CO)O2)c(=O)[nH]c1=O | - | - | - | Primary lymphocytes + Lymphocytes | - | EC50 | 0.2 µM |
| Cc1cn([C@H]2C[C@H](N=[N+]=[N-])[C@@H](CO)O2)c(=O)[nH]c1=O | - | IIIB | cytopathic effect / MTT | MT-2 | - | EC50 | 0.11 µM |
| Cc1cn([C@H]2C[C@H](N=[N+]=[N-])[C@@H](CO)O2)c(=O)[nH]c1=O | - | R112789 | p24 | PBMC | - | EC50 | 0.2 µM |
| Cc1cc(/C=C/C#N)cc(C)c1Oc1ccnc(S(=O)(=O)CC(=O)Nc2ccc(F)cc2)n1 | F227L V106A | - | MTT | MT-4 | - | EC50 | 2.198 µM |
| Cc1cn([C@@H]2O[C@H](CO[Si](C)(C)C(C)(C)C)C3(OS(=O)(=O)C=C3N)[C@H]2O[Si](C)(C)C(C)(C)C)c(=O)n(Cc2ccccc2)c1=O | - | - | - | - | - | EC50 | 0.03–0.76 µM |
| O=C1N(Cc2ccc(CO)cc2)[C@H](Cc2ccccc2)[C@H](O)[C@@H](O)[C@@H](Cc2ccccc2)N1Cc1ccc(CO)cc1 | - | A018C POST AZT | p24 | PBMC | - | EC50 | 0.13 µM |
| CN[C@H]1CO[C@@H]2OCC[C@H](OC(=O)N[C@@H](Cc3ccccc3)[C@H](O)CN(CC(C)C)S(=O)(=O)c3ccc4nc(NC5CC5)sc4c3)[C@@H]21 | L10I L33I M36I M46I I54V K55R I62V L63P A71V G73S V82T L90M I93L | NL4-3 | p24 / luminescence | MT-4 | - | EC50 | 0.038 µM |
| Cc1nnc(C(C)C)n1C1C[C@H]2CC[C@@H](C1)N2CC[C@H](NC(=O)C1CCC(F)(F)CC1)c1ccccc1 | - | NL4-3 | luminescence | TZM-bl | - | EC50 | >1000 µM |
| CC[C@H](C)[C@H](C(=O)O)N1C[C@H](CN2CCC(c3cc(Cc4ccc5ccccc5c4)nn3CC)CC2)[C@@H](c2cccc(F)c2)C1 | - | BaL | β-galactosidase | HeLa | - | EC90 | <0.00014 µM |
| Cc1cc(-c2ccc(C#N)cc2)cc(C)c1Oc1ccnc(S(=O)(=O)CC(=O)Nc2ccc(C#N)cc2)n1 | E138K | IIIB | MTT | MT-4 | - | EC50 | 0.026 µM |
| COc1ccc(CN[C@@H](C(=O)N[C@H](C(=O)NCc2nc3ccccc3[nH]2)C(C)C)[C@H](O)[C@H](Cc2ccccc2)NC(=O)[C@@H](NC(=O)OCc2ccccc2)C(C)(C)C)cc1 | - | HEM | p24 | Primary T4 lymphocytes + T4 | clinical isolate | EC50 | 0.01 µM |
| Nc1ccn([C@H]2CC[C@@H](CO)O2)c(=O)n1 | - | IIIB | cytopathic effect / MTT | MT-2 | - | EC50 | 0.94 µM |
| CC(=O)c1ccc(C)cc1NC(C(N)=O)c1c(Cl)cccc1Cl | - | IIIB | cytopathic effect / MTT | MT-4 | - | EC90 | 0.021 µg/mL |
| Cc1cn([C@H]2C=C[C@@H](CO)O2)c(=O)[nH]c1=O | - | IIIB | cytopathic effect / MTT | MT-2 | - | EC50 | 2.4 µM |
| Nc1ccn([C@@H]2CO[C@H](CO)S2)c(=O)n1 | - | IIIB | p24 | Jurkat cells | - | EC50 | 1.8 µM |
| CCn1nc(Cc2ccccc2F)cc1C1CCN(C[C@H]2CN([C@@H](C(=O)O)C(C)C)C[C@@H]2c2cccc(F)c2)CC1 | - | BaL | β-galactosidase | HeLa | 50% human serum | EC90 | >0.3 µM |
| Cc1cn([C@@H]2O[C@H](CO[Si](C)(C)C(C)(C)C)C3(OS(=O)(=O)C=C3N)[C@H]2O[Si](C)(C)C(C)(C)C)c(=O)n(CCCN(C)C)c1=O | - | - | - | - | - | EC50 | 0.03–0.76 µM |
| COc1ccc(CN[C@@H](C(=O)N[C@H](C(=O)NCc2nc3ccccc3[nH]2)C(C)C)[C@H](O)[C@H](Cc2ccccc2)NC(=O)[C@@H](NC(=O)[C@@](C)(O)c2ccccc2)C(C)(C)C)cc1 | - | IIIB | MTT / p24 | HuT-78 + HUT 78 | - | EC50 | 0.0268 µM |
| CN1N=C(N)c2cn([C@@H]3O[C@H](COP(=O)(O)O)[C@@H](O)[C@H]3O)c3ncnc1c23 | - | ED | XTT | CEM + CEM-SS | - | EC50 | >2.8 µM |
| CCc1c(C(=O)c2cc(C)cc(C)c2)n(CC2CC=CC2)c(=O)[nH]c1=O | - | IIIB | cytopathic effect / XTT | CEM + CEM-SS | - | EC50 | 0.002 µM |
| CC(C)(C)NC(=O)[C@@H]1CN(Cc2cccnc2)CCN1C[C@@H](O)C[C@@H](Cc1ccccc1)C(=O)N[C@H]1c2ccccc2C[C@H]1O | - | IIIB | cytopathic effect / MTT | MT-4 | - | EC90 | 0.041 µg/mL |
| Cc1ccnc2c1NC(=O)c1cccnc1N2C1CC1 | F227L V106A | IIIB | MTT | MT-4 | - | EC50 | >15.9 µM |
| c1cc(CN2CCCNCCNCCCNCC2)ccc1CN1CCCNCCNCCCNCC1 | - | BaL | luminescence | TZM-bl | - | EC50 | >1000 µM |
| CN[C@H]1CO[C@@H]2OCC[C@H](OC(=O)N[C@@H](Cc3cccc(OC)c3)[C@H](O)CN(CC(C)C)S(=O)(=O)c3ccc4nc(NC(C)C)sc4c3)[C@@H]21 | L10F K20T D30N K45I A71V V77I | NL4-3 | p24 / luminescence | MT-4 | - | EC50 | 0.043 µM |
| CCn1nc(Cc2ccc(F)c(F)c2)cc1C1CCN(C[C@H]2CN([C@@H](C(=O)O)C(C)C)C[C@@H]2c2cccc(F)c2)CC1 | - | BaL | β-galactosidase | HeLa | - | EC50 | <0.0074 µM |
| Cc1c(O)cccc1C(=O)N[C@@H](CSc1ccccc1)[C@H](O)CN1C[C@H]2CCCC[C@H]2C[C@H]1C(=O)NC(C)(C)C | - | IIIB | cytopathic effect / MTT | MT-4 | - | EC50 | 0.01 µg/mL |
| Nc1nc(N)c2ncn(CCOCP(=O)(O)O)c2n1 | - | - | - | MM + M/M | - | EC50 | 0.07 µM |
| CCOC(=O)/C=C\n1c(=O)c(C)cn([C@@H]2O[C@H](CO[Si](C)(C)C(C)(C)C)C3(OS(=O)(=O)C=C3N)[C@H]2O[Si](C)(C)C(C)(C)C)c1=O | - | - | - | - | - | EC50 | 0.03–0.76 µM |
| Cc1cc(C#N)cc(C)c1Oc1nc(Nc2ccc(C#N)cc2)nc(N)c1Br | K103N | IIIB | MTT | MT-4 | - | EC50 | 0.003 µM |
| Cc1cn([C@H]2C[C@H](N=[N+]=[N-])[C@@H](CO)O2)c(=O)[nH]c1=O | - | SKI | cytopathic effect / XTT | CEM + CEM-SS | - | EC50 | 0.0018 µM |
| CCn1nc(Cc2ccc(F)cc2F)cc1C1CCN(C[C@H]2CN([C@@H](C(=O)O)C(C)C)C[C@@H]2c2cccc(F)c2)CC1 | - | BaL | β-galactosidase | HeLa | 50% human serum | EC90 | >0.3 µM |
| COC(=O)N[C@H](C(=O)N[C@@H](Cc1ccccc1)[C@@H](O)CN(Cc1ccc(-c2ccccn2)cc1)NC(=O)[C@@H](NC(=O)OC)C(C)(C)C)C(C)(C)C | L10I M46L I54V V82A | NL4-3 | p24 / luminescence | MT-4 | - | EC50 | 54 µM |
| CC[C@H](C)[C@H](C(=O)O)N1C[C@H](CN2CCC(c3cc(Cc4ccc(OC(F)F)cc4)nn3CC)CC2)[C@@H](c2cccc(F)c2)C1 | - | BaL | β-galactosidase | HeLa | - | EC90 | <0.00014 µM |
| COCCn1c(=O)c(C)cn([C@@H]2O[C@H](CO[Si](C)(C)C(C)(C)C)C3(OS(=O)(=O)C=C3N)[C@H]2O[Si](C)(C)C(C)(C)C)c1=O | - | - | - | - | - | EC50 | 0.03–0.76 µM |
| CC(C)=CCOc1cc(NC(=S)c2ccsc2C)ccc1Cl | - | - | - | MM + M/M | - | EC50 | 0.015 µg/mL |
| CC(=O)Oc1ccc(/C=C/C(=O)O[C@H](C(=O)O)[C@H](OC(=O)/C=C/c2ccc(OC(C)=O)c(OC(C)=O)c2)C(=O)O)cc1OC(C)=O | AMD3100-resistant | NL4-3 | - | MT-4 | - | EC50 | >93 µM |
| Cc1cn([C@H]2C=C[C@@H](COP(=O)(O)O)O2)c(=O)[nH]c1=O | - | - | - | CEM + CEM-SS | - | EC50 | 0.73 µM |
| Cc1cc(N)c(C)c2c1[nH]c1c(Cl)cccc12 | - | NL4-3 | luminescence | TZM-bl | - | EC50 | 10.2 µM |
| Nc1ccn([C@H]2CO[C@@H](CO)S2)c(=O)n1 | - | IIIB | p24 | Jurkat cells | - | EC50 | 3 µM |

For reference, 4 entries again:

| smiles | changes | strain | read by | cells | setting | measure | value |
|---|---|---|---|---|---|---|---|
| CN1N=C(N)c2cn([C@@H]3O[C@H](COP(=O)(O)O)[C@@H](O)[C@H]3O)c3ncnc1c23 | - | ED | XTT | CEM + CEM-SS | - | EC50 | >2.8 µM |
| COc1ccc(CN[C@@H](C(=O)N[C@H](C(=O)NCc2nc3ccccc3[nH]2)C(C)C)[C@H](O)[C@H](Cc2ccccc2)NC(=O)[C@@H](NC(=O)[C@@](C)(O)c2ccccc2)C(C)(C)C)cc1 | - | IIIB | MTT / p24 | HuT-78 + HUT 78 | - | EC50 | 0.0268 µM |
| Cc1c(O)cccc1C(=O)N[C@@H](CSc1ccccc1)[C@H](O)CN1C[C@H]2CCCC[C@H]2C[C@H]1C(=O)NC(C)(C)C | - | IIIB | cytopathic effect / MTT | MT-4 | - | EC50 | 0.01 µg/mL |
| Cc1cn([C@H]2C[C@H](N=[N+]=[N-])[C@@H](CO)O2)c(=O)[nH]c1=O | - | - | cytopathic effect | CEM + CEM-SS | - | EC50 | 0.004 µM |